In the series the target is OmpR::His6 (phosphorylated by acetyl-phosphate) (UniProt A6TF28). Kind of series: EMSA. Conditions: 25 mM acetyl-phosphate, 10 mM Mg2+, complex at 1.3 uM OmpR, 10 ng DNA; recombinant protein; residues 1-239; protein details: His6 (pET30b); probe letters rebuilt from the primers and the genome.

Construct, isoform or probe ends are uncertain for at least one entry.

For the sequence “AGGGATCACCACTGCCAGAATATTGCGCTTCATCATTATTTATTACCCTCATTAATATTTTTTATATGAACACGTGCCACTGCCGTCAATAAGTTCTGTCAATAAAAACTTACAGAACCATTGATGAGAGTTTGGTGTCTGAAGGCATCTTTCCATCCGCGACAACGTTTCGCTAGCCGGAAAATGCTACGAATATCTCATATGAGTAACAAAACGAAAAATCATGTAACTAAATGTGTATTTAACGGAACTTTGTGAACTTAATCAAAATTCCGTTCCACCGGATAAGGGCAAACGCCATTACTTATCTATCTATATGAATTATTTATGATTAATTTGGCTAAGCGGCAATTCGTTCATTTTGTGTATTGAATTCGTATTCTTTTTATTCAGTCTCTATCTTTGCAAGATGTGCGGGTAAAGGTCAAAAAATGAGCAAATTTATCAGCGGTTTTGCTCAGTTATGAACATAAAGTGCGATCTACATCACCAGGATGCACCGAAACAGTGCGTAACATAATTGTGATTTCCGGGTCTTGATGTTTAAGGTTGTTGAATTTTACTAACAGTAATTGACATAAAAAAAGGCCAGCTTGCGCTGGCCTTTCAGATTGATGTC (double strand) [PompF]”, the binding result is given as “binds”.

(Values after article PMC6194325.)
